From ChEMBL document CHEMBL4321818, “Anti-biofilm Agents against Pseudomonas aeruginosa: A Structure-Activity Relationship Study of C-Glycosidic LecB Inhibitors” (J Med Chem, 2019)

biological target: Fucose-binding lectin PA-IIL (Pseudomonas aeruginosa (strain ATCC 15692 / DSM 22644 / CIP 104116 / JCM14847 / LMG 12228 / 1C / PRS 101 / PAO1), UniProt Q9HYN5); experiment: Inhibition of N-(fluorescein-5-yl)-N'-(alpha-L-fucopyranosyl ethylen)thiocarbamide binding to Pseudomonas aeruginosa PA14 LecB incubated for 22 to 24 hrs by fluorescence polarization assay

Going from C[C@@H]1O[C@H](CNC(=O)c2cc3ccccc3[nH]2)[C@@H](O)[C@H](O)[C@@H]1O to C[C@@H]1O[C@H](CNS(=O)(=O)c2ccc(C#Cc3ccccc3)s2)[C@@H](O)[C@H](O)[C@@H]1O, the IC50 falls from 3.57 µM to 0.14 µM (25-fold). The second is the more potent here.

Work on C[C@@H]1O[C@H](CNS(=O)(=O)c2ccc(C#CC(C)(C)O)s2)[C@@H](O)[C@H](O)[C@@H]1O yielded an IC50 of 0.31 µM.
